Laboratory results: patent US20220089698A1, “ANTIBODIES THAT TARGET HIV GP120 AND METHODS OF USE” (published 2022)

What was measured:
Experiment in all cases: cell-based or functional assay
[1] = molecular target: HIV-1 envelope glycoprotein gp120 of viral isolate 92US712 (HIV-1)
[2] = molecular target: HIV-1 envelope glycoprotein gp120 of viral isolate 92US657 (HIV-1)
[3] = molecular target: HIV-1 envelope glycoprotein (gp120) of virus 7141 (HIV-1)
[4] = molecular target: HIV-1 envelope glycoprotein (gp120) of virus 92US727 (HIV-1)
[5] = molecular target: HIV-1 envelope glycoprotein (gp120) of virus VS001 (HIV-1)
[6] = molecular target: HIV-1 envelope glycoprotein (gp120) of virus 92US712 (HIV-1)
[7] = molecular target: HIV-1 envelope glycoprotein gp120 of virus BaL (HIV-1 BaL (lab adapted strain, subtype …))
[8] = molecular target: HIV-1 envelope glycoprotein gp120 of virus 92US657 (HIV-1 subtype B, isolate 92US657)

Binder | ADCC EC50 (µg/mL), NK Donor 1, 92US712-infected cells [1] | ADCC EC50 (µg/mL), NK Donor 2, 92US712-infected cells [1] | ADCC EC50 (µg/mL), NK Donor 3, 92US712-infected cells [1] | ADCC Emax (%), NK Donor 1, 92US712-infected cells [1] | ADCC Emax (%), NK Donor 2, 92US712-infected cells [1] | ADCC Emax (%), NK Donor 3, 92US712-infected cells [1] | ADCC EC50 (µg/mL), NK Donor 1, 92US657-infected cells [2] | ADCC EC50 (µg/mL), NK Donor 2, 92US657-infected cells [2] | ADCC EC50 (µg/mL), NK Donor 3, 92US657-infected cells [2] | ADCC Emax (%), NK Donor 1, 92US657-infected cells [2] | ADCC Emax (%), NK Donor 2, 92US657-infected cells [2] | ADCC Emax (%), NK Donor 3, 92US657-infected cells [2] | Neutralization IC50 [3] | Neutralization IC50 [4] | Neutralization IC50 [5] | Neutralization IC50 [6] | Virus Neutralization Potency (IC50) [7] | Virus Neutralization Potency (IC50) [8]
Antibody A-2 (antibody) heavy: QVQLLQSGAAVTKPGASVRVSCEASGYNIRDYFIHWWRQAPGQGLQWVGWINPKTGQPNNPRQFQGRVSLTRHASWDFDTFSFYMDLKALRSDDTAVYFCARQRSDYWDFDVWGSGTQVTVSSASTKGPSVFPLAPSSKSTSGGTAALGCLVKDYFPEPVTVSWNSGALTSGVHTFPAVLQSSGLYSLSSVVTVPSSSLGTQTYICNVNHKPSNTKVDKKVEPKSCDKTHTCPPCPAPELLAGPDVFLFPPKPKDTLMISRTPEVTCVVVDVSHEDPEVKFNWYVDGVEVHNAKTKPREEQYNSTYRVVSVLTVLHQDWLNGKEYKCKVSNKALPLPEEKTISKAKGQPREPQVYTLPPSREEMTKNQVSLTCLVKGFYPSDIAVEWESNGQPENNYKTTPPVLDSDGSFFLYSKLTVDKSRWQQGNVFSCSVMHEALHNHYTQKSLSLSPGK light: not shown | 0.18 µg/mL | 0.08 µg/mL | 0.2 µg/mL | 76% | 60% | 60% | 0.54 µg/mL | 0.81 µg/mL | 1.13 µg/mL | 59% | 51% | 56% |  |  |  |  |  | 
2.2.20-1 (antibody, human IgG1, kappa) heavy: QVHLSQSGAAVTKPGASVRVSCEASGYKIRDHFIHWWRQAPGQGLQWVGWINPKTGQPNNPRQFQGRVSLTRHASWDFDTFSFYMDLKAVRSDDTAIYFCARQRSDYWDFDVWGSGTQVTVSSASTKGPSVFPLAPSSKSTSGGTAALGCLVKDYFPEPVTVSWNSGALTSGVHTFPAVLQSSGLYSLSSVVTVPSSSLGTQTYICNVNHKPSNTKVDKKVEPKSCDKTHTCPPCPAPELLAGPDVFLFPPKPKDTLMISRTPEVTCVVVDVSHEDPEVKFNWYVDGVEVHNAKTKPREEQYNSTYRVVSVLTVLHQDWLNGKEYKCKVSNKALPLPEEKTISKAKGQPREPQVYTLPPSREEMTKNQVSLTCLVKGFYPSDIAVEWESNGQPENNYKTTPPVLDSDGSFFLYSKLTVDKSRWQQGNVFSCSVLHEALHSHYTQKSLSLSPGK light: not shown |  |  |  |  |  |  |  |  |  |  |  |  | 4.01 µg/mL | > 50 µg/mL | 1.25 µg/mL | 0.05 µg/mL |  | 
2.3.20-1 (antibody, human IgG1, kappa) heavy: QVHLSQSGAAVTKPGASVRVSCEASGYNIRDYFIHWWRQAPGQGLQWVGWINPKTGQPNNPRQFQGRVSLTRHASWDFDTFSFYMDLKAVRSDDTAIYFCARQRSDYWDFDVWGSGTQVTVSSASTKGPSVFPLAPSSKSTSGGTAALGCLVKDYFPEPVTVSWNSGALTSGVHTFPAVLQSSGLYSLSSVVTVPSSSLGTQTYICNVNHKPSNTKVDKKVEPKSCDKTHTCPPCPAPELLAGPDVFLFPPKPKDTLMISRTPEVTCVVVDVSHEDPEVKFNWYVDGVEVHNAKTKPREEQYNSTYRVVSVLTVLHQDWLNGKEYKCKVSNKALPLPEEKTISKAKGQPREPQVYTLPPSREEMTKNQVSLTCLVKGFYPSDIAVEWESNGQPENNYKTTPPVLDSDGSFFLYSKLTVDKSRWQQGNVFSCSVLHEALHSHYTQKSLSLSPGK light: not shown |  |  |  |  |  |  |  |  |  |  |  |  | 15.9 µg/mL | > 50 µg/mL | 1.23 µg/mL | 0.08 µg/mL |  | 
Antibody A-3 (antibody) heavy: QVQLLQSGAAVTKPGASVRVSCEASGYNIRDYFIHWWRQAPGQGLQWVGWINPKTGQPNNPRQFQGRVSLTRHASWDFDTFSFYMDLKALRSDDTAVYFCARQRSDYWDFDVWGSGTQVTVSSASTKGPSVFPLAPSSKSTSGGTAALGCLVKDYFPEPVTVSWNSGALTSGVHTFPAVLQSSGLYSLSSVVTVPSSSLGTQTYICNVNHKPSNTKVDKKVEPKSCDKTHTCPPCPAPELLGGPDVFLFPPKPKDTLMISRTPEVTCVVVDVSHEDPEVKFNWYVDGVEVHNAKTKPREEQYNSTYRVVSVLTVLHQDWLNGKEYKCKVSNKALPAPEEKTISKAKGQPREPQVYTLPPSREEMTKNQVSLTCLVKGFYPSDIAVEWESNGQPENNYKTTPPVLDSDGSFFLYSKLTVDKSRWQQGNVFSCSVLHEALHSHYTQKSLSLSPGK light: not shown | 0.07 µg/mL | 0.08 µg/mL | 0.2 µg/mL | 77% | 59% | 67% | 0.68 µg/mL | 0.67 µg/mL | 1.39 µg/mL | 49% | 49% | 56% |  |  |  |  |  | 
Antibody A-4 (antibody) heavy: QVQLLQSGAAVTKPGASVRVSCEASGYNIRDYFIHWWRQAPGQGLQWVGWINPKTGQPNNPRQFQGRVSLTRHASWDFDTFSFYMDLKALRSDDTAVYFCARQRSDYWDFDVWGSGTQVTVSSASTKGPSVFPLAPSSKSTSGGTAALGCLVKDYFPEPVTVSWNSGALTSGVHTFPAVLQSSGLYSLSSVVTVPSSSLGTQTYICNVNHKPSNTKVDKKVEPKSCDKTHTCPPCPAPELLAGPDVFLFPPKPKDTLMISRTPEVTCVVVDVSHEDPEVKFNWYVDGVEVHNAKTKPREEQYNSTYRVVSVLTVLHQDWLNGKEYKCKVSNKALPAPEEKTISKAKGQPREPQVYTLPPSREEMTKNQVSLTCLVKGFYPSDIAVEWESNGQPENNYKTTPPVLDSDGSFFLYSKLTVDKSRWQQGNVFSCSVLHEALHSHYTQKSLSLSPGK light: not shown | 0.2 µg/mL | 0.13 µg/mL | 0.4 µg/mL | 78% | 61% | 64% | 0.6 µg/mL | 1.21 µg/mL | 1.64 µg/mL | 52% | 53% | 50% |  |  |  |  |  | 
Antibody A-5 (antibody) heavy: QVQLLQSGAAVTKPGASVRVSCEASGYNIRDYFIHWWRQAPGQGLQWVGWINPKTGQPNNPRQFQGRVSLTRHASWDFDTFSFYMDLKALRSDDTAVYFCARQRSDYWDFDVWGSGTQVTVSSASTKGPSVFPLAPSSKSTSGGTAALGCLVKDYFPEPVTVSWNSGALTSGVHTFPAVLQSSGLYSLSSVVTVPSSSLGTQTYICNVNHKPSNTKVDKKVEPKSCDKTHTCPPCPAPELLGGPDVFLFPPKPKDTLMISRTPEVTCVVVDVSHEDPEVKFNWYVDGVEVHNAKTKPREEQYNSTYRVVSVLTVLHQDWLNGKEYKCKVSNKALPLPEEKTISKAKGQPREPQVYTLPPSREEMTKNQVSLTCLVKGFYPSDIAVEWESNGQPENNYKTTPPVLDSDGSFFLYSKLTVDKSRWQQGNVFSCSVLHEALHSHYTQKSLSLSPGK light: not shown | 0.19 µg/mL | 0.08 µg/mL | 0.09 µg/mL | 79% | 61% | 66% | 0.57 µg/mL | 0.83 µg/mL | 0.76 µg/mL | 58% | 61% | 61% |  |  |  |  |  | 
Antibody A-6 (antibody) heavy: QVQLLQSGAAVTKPGASVRVSCEASGYNIRDYFIHWWRQAPGQGLQWVGWINPKTGQPNNPRQFQGRVSLTRHASWDFDTFSFYMDLKALRSDDTAVYFCARQRSDYWDFDVWGSGTQVTVSSASTKGPSVFPLAPSSKSTSGGTAALGCLVKDYFPEPVTVSWNSGALTSGVHTFPAVLQSSGLYSLSSVVTVPSSSLGTQTYICNVNHKPSNTKVDKKVEPKSCDKTHTCPPCPAPELLGGPSVFLLPPKPKDTLMISRTPEVTCVVVDVSHEDPEVKFNWYVDGVEVHNAKTKPPEEQYNSTLRVVSILTVLHQDWLNGKEYKCKVSNKALPAPIEKTISKAKGQPREPQVYTLPPSREEMTKNQVSLTCLVKGFYPSDIAVEWESNGQPENNYKTTPLVLDSDGSFFLYSKLTVDKSRWQQGNVFSCSVLHEALHSHYTQKSLSLSPGK light: not shown | 0.27 µg/mL | 0.54 µg/mL | 0.18 µg/mL | 68% | 54% | 51% | 3.93 µg/mL | 1.21 µg/mL | 3.21 µg/mL | 54% | 53% | 52% |  |  |  |  |  | 
Antibody A-1 (antibody, human IgG1, kappa) heavy: QVQLLQSGAAVTKPGASVRVSCEASGYNIRDYFIHWWRQAPGQGLQWVGWINPKTGQPNNPRQFQGRVSLTRHASWDFDTFSFYMDLKALRSDDTAVYFCARQRSDYWDFDVWGSGTQVTVSSASTKGPSVFPLAPSSKSTSGGTAALGCLVKDYFPEPVTVSWNSGALTSGVHTFPAVLQSSGLYSLSSVVTVPSSSLGTQTYICNVNHKPSNTKVDKKVEPKSCDKTHTCPPCPAPELLAGPDVFLFPPKPKDTLMISRTPEVTCVVVDVSHEDPEVKFNWYVDGVEVHNAKTKPREEQYNSTYRVVSVLTVLHQDWLNGKEYKCKVSNKALPLPEEKTISKAKGQPREPQVYTLPPSREEMTKNQVSLTCLVKGFYPSDIAVEWESNGQPENNYKTTPPVLDSDGSFFLYSKLTVDKSRWQQGNVFSCSVLHEALHSHYTQKSLSLSPGK light: not shown |  |  |  |  |  |  |  |  |  |  |  |  |  |  |  |  | 0.16 µg/mL | 1.31 µg/mL
